Experimental data from publication PMC8809408 (Frontiers in Pharmacology, 2022).

System: pseudotyped lentiviruses harboring S-protein of SARS-CoV-2
Assay type: cell-based

SMILES: CNCCCN1c2ccccc2CCc2ccccc21 [Desipramine]
- selectivity index (SI): 8.50

SMILES: O=c1[nH]c2ccccc2n1C1CCN(CCCC(c2ccc(F)cc2)c2ccc(F)cc2)CC1 [Pimozide]
- selectivity index (SI): 3.31

SMILES: CN(C)CCCN1c2ccccc2Sc2ccc(Cl)cc21 [Chlorpromazine]
- selectivity index (SI): 16.31
